These are literature values, as cited in paper PMC4335872, “Pharmacokinetic-Pharmacodynamic Analysis of Spiroindolone Analogs and KAE609 in a Murine Malaria Model” (Antimicrobial Agents and Chemotherapy, 2015).

On the set-up of this series: method as in PMID 24089407. As to conditions: cited from earlier work.

In the case of `C[C@H]1[C@H](OC(=O)CCC(=O)O)O[C@@H]2O[C@@]3(C)CC[C@H]4[C@H](C)CC[C@@H]1[C@@]24OO3` [artesunate], the “PK-PD relationship (type of killing)” value is given as “concentration-dependent killing”.
